Measured values taken from ChEMBL document CHEMBL5346973 (J Med Chem, 2023).
pIC50: −log10 of the molar value.

Protein sequences, listed by entry. Tags and fused reporters are not part of them. Residues count along the entry.
UniProt P04756, 21-457 limits assumed: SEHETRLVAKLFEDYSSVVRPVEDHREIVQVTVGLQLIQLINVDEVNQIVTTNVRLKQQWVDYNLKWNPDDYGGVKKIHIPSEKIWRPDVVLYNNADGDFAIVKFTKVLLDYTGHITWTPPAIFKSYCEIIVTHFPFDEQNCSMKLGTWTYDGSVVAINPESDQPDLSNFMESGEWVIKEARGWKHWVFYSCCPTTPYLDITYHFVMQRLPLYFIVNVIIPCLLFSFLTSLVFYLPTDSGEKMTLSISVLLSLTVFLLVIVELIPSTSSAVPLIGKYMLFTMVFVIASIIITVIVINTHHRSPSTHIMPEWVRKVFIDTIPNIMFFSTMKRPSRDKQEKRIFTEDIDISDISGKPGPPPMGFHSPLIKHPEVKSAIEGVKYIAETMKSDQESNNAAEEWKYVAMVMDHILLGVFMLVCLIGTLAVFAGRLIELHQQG
UniProt P09690, 24-501 limits assumed: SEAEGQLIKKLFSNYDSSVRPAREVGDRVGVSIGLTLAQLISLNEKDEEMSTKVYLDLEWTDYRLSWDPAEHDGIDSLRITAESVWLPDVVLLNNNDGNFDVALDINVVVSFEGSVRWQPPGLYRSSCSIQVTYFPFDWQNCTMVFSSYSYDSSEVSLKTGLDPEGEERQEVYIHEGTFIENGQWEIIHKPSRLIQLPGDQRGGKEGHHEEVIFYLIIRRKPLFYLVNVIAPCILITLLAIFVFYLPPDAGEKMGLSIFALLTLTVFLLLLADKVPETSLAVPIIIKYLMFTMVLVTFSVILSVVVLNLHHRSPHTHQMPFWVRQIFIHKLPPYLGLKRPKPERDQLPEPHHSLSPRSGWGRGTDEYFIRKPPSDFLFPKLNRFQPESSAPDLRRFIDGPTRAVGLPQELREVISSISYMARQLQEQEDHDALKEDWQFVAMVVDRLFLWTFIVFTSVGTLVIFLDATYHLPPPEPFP
UniProt P02716, 25-520 limits assumed: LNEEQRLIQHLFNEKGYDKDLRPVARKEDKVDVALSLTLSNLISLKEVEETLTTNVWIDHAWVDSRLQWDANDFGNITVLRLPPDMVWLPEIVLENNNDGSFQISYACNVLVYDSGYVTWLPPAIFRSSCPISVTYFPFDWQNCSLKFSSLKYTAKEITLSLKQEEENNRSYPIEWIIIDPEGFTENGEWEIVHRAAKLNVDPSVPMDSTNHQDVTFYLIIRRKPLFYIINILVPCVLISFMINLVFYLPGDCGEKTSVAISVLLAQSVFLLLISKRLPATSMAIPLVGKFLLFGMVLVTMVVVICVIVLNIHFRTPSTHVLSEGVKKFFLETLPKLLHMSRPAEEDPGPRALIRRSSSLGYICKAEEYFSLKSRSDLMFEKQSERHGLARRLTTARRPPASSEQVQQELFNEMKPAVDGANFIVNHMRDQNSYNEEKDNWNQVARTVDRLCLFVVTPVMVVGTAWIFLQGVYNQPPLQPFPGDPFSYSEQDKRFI
UniProt P20782, 21-493 limits assumed: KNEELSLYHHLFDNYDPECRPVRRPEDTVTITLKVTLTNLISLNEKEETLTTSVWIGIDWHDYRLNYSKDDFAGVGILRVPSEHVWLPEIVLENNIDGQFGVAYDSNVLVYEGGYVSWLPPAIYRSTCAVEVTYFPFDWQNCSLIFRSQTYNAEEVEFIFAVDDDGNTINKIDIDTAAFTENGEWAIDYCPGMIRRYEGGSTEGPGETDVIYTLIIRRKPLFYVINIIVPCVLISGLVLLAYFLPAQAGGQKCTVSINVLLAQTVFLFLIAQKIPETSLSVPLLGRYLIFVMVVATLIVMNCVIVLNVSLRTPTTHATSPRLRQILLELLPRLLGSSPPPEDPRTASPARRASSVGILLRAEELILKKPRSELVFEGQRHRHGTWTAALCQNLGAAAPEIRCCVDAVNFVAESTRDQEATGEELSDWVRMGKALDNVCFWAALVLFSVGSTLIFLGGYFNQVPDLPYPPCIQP

molecular target: Nicotinic acetylcholine receptor alpha1/beta1/epsilon/delta (Mus musculus, UniProt P04756+P09690+P02716+P20782); assay: Antagonist activity at mouse alpha1beta1deltaepsilon nACh receptor expressed in Xenopus oocyte assessed as inhibition of acetylcholine-induced response at -70 mV holding potential by voltage-clamp based electrophysiological assay

Point of comparison: `CC[C@H](C)[C@@H]1NC(=O)[C@H](CCCNC(=N)N)NC(=O)[C@H](CCCNC(=N)N)NC(=O)[C@@H]2CSSC[C@H](NC(=O)[C@H](Cc3ccc(O)cc3)NC(=O)[C@H](CCCNC(=N)N)NC(=O)[C@H](C)NC(=O)[C@H](CO)NC(=O)[C@H](CO)NC(=O)[C@H](CCCNC(=N)N)NC(=O)[C@@H](NC(=O)[C@@H](N)[C@@H](C)O)CSSC[C@@H](C(=O)N[C@H](C(=O)O)C(C)C)NC(=O)[C@H](C)NC(=O)[C@H](CC(=O)O)NC(=O)[C@H]([C@@H](C)O)NC1=O)C(=O)N[C@@H](CCCNC(=N)N)C(=O)N[C@@H](CO)C(=O)N1CCC[C@H]1C(=O)N[C@@H](Cc1ccc(O)cc1)C(=O)N[C@@H](CC(=O)O)C(=O)N[C@@H](CCCNC(=N)N)C(=O)N[C@@H](CCCNC(=N)N)C(=O)N[C@@H](CCCNC(=N)N)C(=O)N[C@@H](CCCNC(=N)N)C(=O)N[C@@H](Cc1ccc(O)cc1)C(=O)N2`, pIC50 6.11. Against it:
- CC[C@H](C)[C@@H]1NC(=O)[C@H](CCCNC(=N)N)NC(=O)[C@H](CCCNC(=N)N)NC(=O)[C@@H]2CSSC[C@H](NC(=O)[C@H](Cc3ccc(O)cc3)NC(=O)[C@H](C)NC(=O)CNC(=O)[C@H](CO)NC(=O)[C@H](CO)NC(=O)[C@H](CCCNC(=N)N)NC(=O)[C@@H](NC(=O)[C@@H](N)[C@@H](C)O)CSSC[C@@H](C(=O)N[C@H](C(=O)O)C(C)C)NC(=O)[C@H](C)NC(=O)[C@H](CC(=O)O)NC(=O)[C@H]([C@@H](C)O)NC1=O)C(=O)N[C@@H](CCCNC(=N)N)C(=O)N[C@@H](CO)C(=O)N1CCC[C@H]1C(=O)N[C@@H](Cc1ccc(O)cc1)C(=O)N[C@@H](CC(=O)O)C(=O)N[C@@H](CCCNC(=N)N)C(=O)N[C@@H](CCCNC(=N)N)C(=O)N[C@@H](CCCNC(=N)N)C(=O)N[C@@H](CCCNC(=N)N)C(=O)N[C@@H](Cc1ccc(O)cc1)C(=O)N2 — 0.65 log units lower, 5.46
- CC[C@H](C)[C@@H]1NC(=O)[C@H](CCCNC(=N)N)NC(=O)[C@H](CCCNC(=N)N)NC(=O)[C@@H](NC(=O)[C@H](Cc2ccc(O)cc2)NC(=O)[C@H](CCCNC(=N)N)NC(=O)[C@H](CCCNC(=N)N)NC(=O)[C@H](CCCNC(=N)N)NC(=O)[C@H](CCCNC(=N)N)NC(=O)[C@H](CC(=O)O)NC(=O)[C@H](Cc2ccc(O)cc2)NC(=O)[C@@H]2CCCN2C(=O)[C@H](CO)NC(=O)[C@H](CCCNC(=N)N)NC(=O)[C@@H]2CSSC[C@H](NC(=O)[C@@H](N)[C@@H](C)O)C(=O)N[C@@H](CCCNC(=N)N)C(=O)N[C@@H](CO)C(=O)N[C@@H](CO)C(=O)NCC(=O)N[C@@H](CCCNC(=N)N)C(=O)N[C@@H](Cc3ccc(O)cc3)C(=O)N2)CSSC[C@@H](C(=O)N[C@@H](C)C(=O)O)NC(=O)[C@H](C)NC(=O)[C@H](CC(=O)O)NC(=O)[C@H]([C@@H](C)O)NC1=O — 0.34 log units lower, 5.77
- CC[C@H](C)[C@H]1NC(=O)[C@H](CCCNC(=N)N)NC(=O)[C@H](CCCNC(=N)N)NC(=O)[C@@H](NC(=O)[C@H](Cc2ccc(O)cc2)NC(=O)[C@H](CCCNC(=N)N)NC(=O)[C@H](CCCNC(=N)N)NC(=O)[C@H](CCCNC(=N)N)NC(=O)[C@H](CCCNC(=N)N)NC(=O)[C@H](CC(=O)O)NC(=O)[C@H](Cc2ccc(O)cc2)NC(=O)[C@@H]2CCCN2C(=O)[C@H](CO)NC(=O)[C@H](CCCNC(=N)N)NC(=O)[C@@H]2CSSC[C@H](NC(=O)[C@@H](N)[C@@H](C)O)C(=O)N[C@@H](C)C(=O)N[C@@H](CO)C(=O)N[C@@H](CO)C(=O)NCC(=O)N[C@@H](CCCNC(=N)N)C(=O)N[C@@H](Cc3ccc(O)cc3)C(=O)N2)CSSC[C@@H](C(=O)N[C@H](C(=O)O)C(C)C)NC(=O)[C@H](C)NC(=O)[C@H](CC(=O)O)NC(=O)[C@H]([C@@H](C)O)NC1=O — 0.40 log units lower, 5.71
- CC[C@H](C)[C@@H]1NC(=O)[C@H](CCCNC(=N)N)NC(=O)[C@H](CCCNC(=N)N)NC(=O)[C@@H](NC(=O)[C@H](Cc2ccc(O)cc2)NC(=O)[C@H](CCCNC(=N)N)NC(=O)[C@H](CCCNC(=N)N)NC(=O)[C@H](CCCNC(=N)N)NC(=O)[C@H](CCCNC(=N)N)NC(=O)[C@H](CC(=O)O)NC(=O)[C@H](Cc2ccc(O)cc2)NC(=O)[C@@H]2CCCN2C(=O)[C@H](CO)NC(=O)[C@H](CCCNC(=N)N)NC(=O)[C@@H]2CSSC[C@H](NC(=O)[C@@H](N)[C@@H](C)O)C(=O)N[C@@H](CCCNC(=N)N)C(=O)N[C@@H](CO)C(=O)N[C@@H](CO)C(=O)NCC(=O)N[C@@H](C)C(=O)N[C@@H](Cc3ccc(O)cc3)C(=O)N2)CSSC[C@@H](C(=O)N[C@H](C(=O)O)C(C)C)NC(=O)[C@H](C)NC(=O)[C@H](CC(=O)O)NC(=O)[C@H]([C@@H](C)O)NC1=O — 0.58 log units lower, 5.53
- CC[C@H](C)[C@@H]1NC(=O)[C@H](C)NC(=O)[C@H](CCCNC(=N)N)NC(=O)[C@@H]2CSSC[C@H](NC(=O)[C@H](Cc3ccc(O)cc3)NC(=O)[C@H](CCCNC(=N)N)NC(=O)CNC(=O)[C@H](CO)NC(=O)[C@H](CO)NC(=O)[C@H](CCCNC(=N)N)NC(=O)[C@@H](NC(=O)[C@@H](N)[C@@H](C)O)CSSC[C@@H](C(=O)N[C@H](C(=O)O)C(C)C)NC(=O)[C@H](C)NC(=O)[C@H](CC(=O)O)NC(=O)[C@H]([C@@H](C)O)NC1=O)C(=O)N[C@@H](CCCNC(=N)N)C(=O)N[C@@H](CO)C(=O)N1CCC[C@H]1C(=O)N[C@@H](Cc1ccc(O)cc1)C(=O)N[C@@H](CC(=O)O)C(=O)N[C@@H](CCCNC(=N)N)C(=O)N[C@@H](CCCNC(=N)N)C(=O)N[C@@H](CCCNC(=N)N)C(=O)N[C@@H](CCCNC(=N)N)C(=O)N[C@@H](Cc1ccc(O)cc1)C(=O)N2 — 0.48 log units lower, 5.63
- CC(C)[C@H](NC(=O)[C@@H]1CSSC[C@H](NC(=O)[C@H](Cc2ccc(O)cc2)NC(=O)[C@H](CCCNC(=N)N)NC(=O)[C@H](CCCNC(=N)N)NC(=O)[C@H](CCCNC(=N)N)NC(=O)[C@H](CCCNC(=N)N)NC(=O)[C@H](CC(=O)O)NC(=O)[C@H](Cc2ccc(O)cc2)NC(=O)[C@@H]2CCCN2C(=O)[C@H](CO)NC(=O)[C@H](CCCNC(=N)N)NC(=O)[C@@H]2CSSC[C@H](NC(=O)[C@@H](N)[C@@H](C)O)C(=O)N[C@@H](CCCNC(=N)N)C(=O)N[C@@H](CO)C(=O)N[C@@H](CO)C(=O)NCC(=O)N[C@@H](CCCNC(=N)N)C(=O)N[C@@H](Cc3ccc(O)cc3)C(=O)N2)C(=O)N[C@@H](CCCNC(=N)N)C(=O)N[C@@H](CCCNC(=N)N)C(=O)N[C@@H](C)C(=O)N[C@@H]([C@@H](C)O)C(=O)N[C@@H](CC(=O)O)C(=O)N[C@@H](C)C(=O)N1)C(=O)O — 0.79 log units lower, 5.32
- CC[C@H](C)[C@@H]1NC(=O)[C@H](CCCNC(=N)N)NC(=O)[C@H](CCCNC(=N)N)NC(=O)[C@@H](NC(=O)[C@H](Cc2ccc(O)cc2)NC(=O)[C@H](CCCNC(=N)N)NC(=O)[C@H](CCCNC(=N)N)NC(=O)[C@H](CCCNC(=N)N)NC(=O)[C@H](CCCNC(=N)N)NC(=O)[C@H](CC(=O)O)NC(=O)[C@H](Cc2ccc(O)cc2)NC(=O)[C@@H]2CCCN2C(=O)[C@H](CO)NC(=O)[C@H](CCCNC(=N)N)NC(=O)[C@@H]2CSSC[C@H](NC(=O)[C@@H](N)[C@@H](C)O)C(=O)N[C@@H](CCCNC(=N)N)C(=O)N[C@@H](C)C(=O)N[C@@H](CO)C(=O)NCC(=O)N[C@@H](CCCNC(=N)N)C(=O)N[C@@H](Cc3ccc(O)cc3)C(=O)N2)CSSC[C@@H](C(=O)N[C@H](C(=O)O)C(C)C)NC(=O)[C@H](C)NC(=O)[C@H](CC(=O)O)NC(=O)[C@H]([C@@H](C)O)NC1=O — within 0.2 log units, 6.00
